A mixed list of measured activities; the numbers were collected in NIAID ChemDB.

Common to all: growth or infection tests; organism: HIV-1; cell line: MT-4; read-out: fold resistance

Conditions beyond the fields shown may differ between rows.

{"structure": "CCN1C(=O)N(Cc2ccccc2)S(=O)(=O)c2cscc21", "strain": "ADP/141", "changes": "RT-D67N K70R T215F K219Q", "read by": "syncytia", "value": "0.356"}
{"structure": "CC(C)=CCN1c2cc(Cl)cc3[nH]c(=S)n(c23)C[C@@H]1C", "changes": "RT-L74V K101E", "value": "4"}
{"structure": "COc1cc(C(=O)N[C@H](C(=O)NCCCC[C@@H](CO)N(CC(C)C)S(=O)(=O)c2ccc(N)cc2)C(c2ccccc2)c2ccccc2)ccc1O", "strain": "4596 PR-M46I V82T I84V L10R L63P", "changes": "PR-M46I V82T I84V L10R L63P", "read by": "cytopathic effect / MTT", "value": "1.64"}
{"structure": "Cc1ccccc1NC(=O)COc1ccc(Cl)cc1C(=O)c1cc(F)cc(F)c1", "strain": "Nevirapine-resistant", "changes": "RT-Y181C", "read by": "cytopathic effect / MTS", "value": "1.44"}
{"structure": "CN[C@H]1CO[C@@H]2OCC[C@H](OC(=O)N[C@@H](Cc3cccc(OC)c3)[C@H](O)CN(CC(C)C)S(=O)(=O)c3ccc4nc(NC(C)C)sc4c3)[C@@H]21", "strain": "NL4-3", "changes": "L10I N37D G48V I54V L63P G73C I84V L90M", "read by": "p24 / luminescence", "value": "2.4"}
{"structure": "Cc1cn([C@H]2C[C@H](N=[N+]=[N-])[C@@H](CO)O2)c(=O)[nH]c1=O", "strain": "IIIB", "changes": "RT-D67N K70R K172R", "read by": "cytopathic effect / MTT", "value": "25.5"}
{"structure": "CC(C)CN(C[C@@H](O)[C@H](Cc1ccccc1)NC(=O)O[C@H]1CCO[C@H]2OCC[C@H]21)S(=O)(=O)c1ccc2nc(NC3CC3)sc2c1", "strain": "NL4-3", "changes": "L10I I15V K20R L24I V32I M36I M46I L63P K70Q V82A I84V L89M", "read by": "p24 / luminescence", "value": "107"}
{"structure": "CC(C)[C@H](NC(=O)c1ccccn1)C(=O)N[C@@H](Cc1ccccc1)[C@H](O)[C@H](O)[C@H](Cc1ccccc1)NC(=O)[C@@H](NC(=O)c1ccccn1)C(C)C", "strain": "P19 (PR-R8Q)", "changes": "PR-R8Q", "read by": "p24", "value": "2"}
{"structure": "CC(C)Nc1cccnc1N1CCN(C(=O)c2cc3cc(NS(C)(=O)=O)ccc3[nH]2)CC1", "strain": "FO-08.96 (HXB2 RT F77L F116Y Q151M)", "changes": "RT-F77L F116Y Q151M", "read by": "cytopathic effect", "value": "3"}
{"structure": "Cc1cn([C@H]2C[C@H](N=[N+]=[N-])[C@@H](CO)O2)c(=O)[nH]c1=O", "strain": "TIBO-resistant L100I (RT-L100I)", "changes": "RT-L100I", "read by": "cytopathic effect / MTT", "value": "0.2"}
{"structure": "O=C1c2ccccc2C(=O)N1CCOC(=S)N(C(=O)c1ccc(Cl)cc1)c1ccc(Cl)cc1", "strain": "A17", "changes": "RT-K103N Y181C", "read by": "cytopathic effect / MTT", "value": ">4000"}
{"structure": "CC(C)CN(C[C@@H](O)[C@H](Cc1ccccc1)NC(=O)O[C@H]1CCOC1)S(=O)(=O)c1ccc(N)cc1", "strain": "NL4-3", "changes": "L10I N37D G48V I54V L63P G73C I84V L90M", "read by": "p24 / luminescence", "value": ">27"}
{"structure": "O=C1c2ccccc2C(=O)N1CCOC(=S)N(C(=O)c1ccccc1)c1ccc(Cl)cc1", "strain": "A17", "changes": "RT-K103N Y181C", "read by": "cytopathic effect / MTT", "value": ">1000"}
{"structure": "CCCN(C)c1c(Cc2cc(C)cc(C)c2)c(CC)c(C)[nH]c1=O", "strain": "Recombinant", "changes": "RT-Y181C", "read by": "cytopathic effect / MTT", "value": "24.8"}
{"structure": "Cc1cn([C@H]2C=C[C@@H](COC(=O)NCCSC(=O)OC[C@@H]3C=C[C@H](n4cc(C)c(=O)[nH]c4=O)O3)O2)c(=O)[nH]c1=O", "strain": "NNRTI-resistant (RT K103N Y181C)", "changes": "RT-K103N Y181C", "read by": "cytopathic effect / MTT", "value": ">0.44"}
{"structure": "Cc1cc(C#N)cc(C)c1Oc1nc(Nc2ccc(C#N)cc2)ncc1SCC(=O)N1CCSCC1", "changes": "Y181C", "read by": "MTT", "value": "9.4"}
{"structure": "O=c1[nH]cnc2c1ncn2[C@H]1CC[C@@H](CO)O1", "strain": "IIIB", "changes": "RT-D67N K70R K172R", "read by": "cytopathic effect / MTT", "value": "0.812"}
{"structure": "O=c1[nH]cnc2c1ncn2[C@H]1CC[C@@H](CO)O1", "strain": "NNRTI-resistant (RT Y181C)", "changes": "RT-Y181C", "read by": "cytopathic effect / MTT", "value": "0.3"}
{"structure": "COC(=O)N[C@H](C(=O)N[C@@H](Cc1ccccc1)[C@@H](O)CN(Cc1ccc(-c2ccccn2)cc1)NC(=O)[C@@H](NC(=O)OC)C(C)(C)C)C(C)(C)C", "strain": "NL4-3", "changes": "L10F V32I M46I I54M A71V I84V", "read by": "p24 / luminescence", "value": "210"}
{"structure": "CC(C)CN([C@H](CO)CCCCNC(=O)[C@@H](NC(=O)c1ccc(N)nc1)C(c1ccccc1)c1ccccc1)S(=O)(=O)c1ccc(N)cc1", "strain": "4596 PR-M46I V82T I84V L10R L63P", "changes": "PR-M46I V82T I84V L10R L63P", "read by": "cytopathic effect / MTT", "value": "0.86"}
{"structure": "Nc1nc(=O)n([C@@H]2CO[C@H](CO)S2)cc1F", "strain": "HXB2D(RT-M184I)", "changes": "RT-M184I", "read by": "RT activity", "value": "4.09"}
{"structure": "CC(C)(C)NC(=O)[C@@H]1C[C@@H]2CCCC[C@@H]2CN1C[C@@H](O)[C@H](Cc1ccccc1)NC(=O)[C@H](CC(N)=O)NC(=O)c1ccc2ccccc2n1", "strain": "NL4-3", "changes": "PR-L10R M46I L63P", "read by": "p24", "value": "1"}
{"structure": "O=c1[nH]cnc2c1ncn2[C@H]1CC[C@@H](CO)O1", "strain": "HXB2D (RT-K65R)", "changes": "RT-K65R", "read by": "p24", "value": "3.16"}
{"structure": "CC(C)=CCOCn1c(Cc2cc(C)cc(C)c2)c(C(C)C)c(=O)[nH]c1=O", "strain": "IIIB", "changes": "RT-Y181C", "read by": "cytopathic effect / MTT", "value": "100000"}
{"structure": "CN1C(=O)N(Cc2ccccc2)S(=O)(=O)c2cscc21", "strain": "ADP/141", "changes": "RT-D67N K70R T215F K219Q", "read by": "syncytia", "value": "0.69"}
{"structure": "COc1c(O)c(Cl)c2c(c1OC)-c1c(c(Cl)c(O)c(OC)c1OC)C[C@H](C)[C@H](C)C2", "strain": "A17", "changes": "RT-K103N Y181C", "read by": "cytopathic effect / MTT", "value": "14.1"}
{"structure": "CN(C)C(=O)Oc1nsnc1-c1ccccc1", "strain": "IIIB-R (RT-Y181C)", "changes": "RT-Y181C", "read by": "cytopathic effect / MTT", "value": ">7.24"}
{"structure": "O=c1[nH]cnc2c1ncn2[C@H]1CC[C@@H](CO)O1", "strain": "BI-12.96 (HXB2(RT-A62V S68G T69D V75I F77L F116Y Q151M))", "changes": "RT-A62V S68G T69D V75I F77L F116Y Q151M", "read by": "cytopathic effect", "value": ">16.2"}
{"structure": "O=C1c2ccccc2C(=O)N1CCOC(=S)N(C(=O)c1cccnc1Cl)c1ccc(Cl)cc1", "strain": "IIIB", "changes": "RT-K103R V179D P225H", "read by": "cytopathic effect / MTT", "value": ">20000"}
{"structure": "CC(C)CN(C[C@@H](O)[C@H](Cc1ccccc1)NC(=O)[C@H](CC(N)=O)NC(=O)c1ccc2ccccc2n1)C(=O)NC(C)(C)C", "strain": "NL4-3", "changes": "PR-L10R M46I L63P", "read by": "p24", "value": "1"}
{"structure": "O=C1c2ccccc2C(=O)N1CCOC(=S)N(C(=O)c1cccs1)c1ccc(Cl)cc1", "strain": "N119 nevirapine-resistant (RT Y181C)", "changes": "RT-Y181C", "read by": "cytopathic effect / MTT", "value": ">12500"}
{"structure": "CC(C)c1nc(CN(C)C(=O)N[C@H](C(=O)N[C@@H](Cc2ccccc2)C[C@H](O)[C@H](Cc2ccccc2)NC(=O)OCc2cncs2)C(C)C)cs1", "strain": "NL4-3", "changes": "PR-D30N", "read by": "p24", "value": "0.2"}
{"structure": "Cc1cn([C@H]2C[C@H](N=[N+]=[N-])[C@@H](COC(=O)NCCSC(=O)OC[C@H]3O[C@@H](n4cc(C)c(=O)[nH]c4=O)C[C@@H]3N=[N+]=[N-])O2)c(=O)[nH]c1=O", "strain": "NNRTI-resistant (RT K103N Y181C)", "changes": "RT-K103N Y181C", "read by": "cytopathic effect / MTT", "value": "1"}
{"structure": "CCN[C@H]1CO[C@@H]2OCC[C@H](OC(=O)N[C@@H](Cc3ccccc3)[C@H](O)CN(CC(C)C)S(=O)(=O)c3ccc4nc(NC5CC5)sc4c3)[C@@H]21", "strain": "NL4-3", "changes": "L10F M46I I54V V82A", "read by": "p24 / luminescence", "value": "1.2"}
{"structure": "CC(C)=CCN1Cc2cccc3[nH]c(=S)n(c23)C[C@@H]1C", "strain": "TIBO-resistant L100I (RT-L100I)", "changes": "RT-L100I", "read by": "cytopathic effect / MTT", "value": "262"}
{"structure": "CC(C)=CCOc1cc(NC(=S)c2ccoc2C)ccc1Cl", "strain": "Recombinant", "changes": "RT-P225H", "read by": "cytopathic effect", "value": "3.7"}
{"structure": "CC(C)(C)NC(=O)[C@@H]1C[C@@H]2CCCC[C@@H]2CN1C[C@@H](O)[C@H](Cc1ccccc1)NC(=O)[C@H](CC(N)=O)NC(=O)c1ccc2ccccc2n1", "strain": "NL4-3.C14 (PR L10F V32I M46I I47V I84V T91S)", "changes": "PR-L10F V32I M46I I47V I84V T91S", "read by": "p24", "value": "0.5"}
{"structure": "c1cc(CN2CCCNCCNCCCNCC2)ccc1CN1CCCNCCNCCCNCC1", "strain": "NL4-3", "changes": "L-CA resistant", "read by": "cytopathic effect / MTT", "value": "2"}
{"structure": "CCOCn1c(Cc2ccccc2)c(C(C)C)c(=O)[nH]c1=O", "strain": "IIIB", "changes": "RT-K103N Y181C", "read by": "cytopathic effect / MTT", "value": ">5000"}
{"structure": "C=C(C)OC(=O)N1c2cc(Cl)ccc2NC(=S)C1(C)C", "strain": "Recombinant", "changes": "RT-P225H", "read by": "cytopathic effect", "value": "4"}
{"structure": "CCCN(C)C(=O)Oc1nsnc1-c1c(Cl)cccc1Cl", "strain": "IIIB-R (RT-Y181C)", "changes": "RT-Y181C", "read by": "cytopathic effect / MTT", "value": "200"}
{"structure": "O=c1[nH]cnc2c1ncn2[C@H]1CC[C@@H](CO)O1", "strain": "HXB2-D184 (RT-M184V)", "changes": "RT-M184V", "read by": "p24", "value": "4.41"}
{"structure": "CC(C)=CCN1Cc2cc(Cl)cc3[nH]c(=O)n(c23)C[C@@H]1C", "strain": "Recombinant", "changes": "RT-V106A P225H", "read by": "cytopathic effect", "value": "73"}
{"structure": "CCN1C(=O)N(Cc2cccc(Cl)c2)S(=O)(=O)c2cscc21", "strain": "ADP/141", "changes": "RT-D67N K70R T215F K219Q", "read by": "syncytia", "value": "0.24"}
{"structure": "CCCCCCN(C)C(=O)Oc1nsnc1-c1c(Cl)cccc1Cl", "strain": "IIIB-R (RT-Y181C)", "changes": "RT-Y181C", "read by": "cytopathic effect / MTT", "value": ">158"}
{"structure": "CC(=O)Oc1ccc(/C=C/C(=O)O[C@H](C(=O)O)[C@H](OC(=O)/C=C/c2ccc(OC(C)=O)c(OC(C)=O)c2)C(=O)O)cc1OC(C)=O", "strain": "NL4-3", "changes": "Dextran sulfate-resistant", "value": ">11.9"}
{"structure": "COc1ccc(S(=O)(=O)N(CC(C)C)C[C@@H](O)[C@H](Cc2ccc(OC)c(Cl)c2)NC(=O)O[C@H]2CO[C@H]3OCC[C@H]32)cc1", "strain": "NL4-3", "changes": "L10F M46I I54V V82A", "read by": "p24 / luminescence", "value": "6"}
{"structure": "Cc1cn([C@H]2C=C[C@@H](CO)O2)c(=O)[nH]c1=O", "strain": "BI-03.97 (HXB2(RT-A62V S68G T69D V75I F77L F116Y Q151M))", "changes": "RT-A62V S68G T69D V75I F77L F116Y Q151M", "read by": "cytopathic effect", "value": ">40"}
{"structure": "CN(C)C(=O)Oc1nsnc1-c1cc(Cl)ccc1Cl", "strain": "IIIB-R (RT-Y181C)", "changes": "RT-Y181C", "read by": "cytopathic effect / MTT", "value": ">300"}
{"structure": "CCN[C@H]1CO[C@@H]2OCC[C@H](OC(=O)N[C@@H](Cc3cccc(OC)c3)[C@H](O)CN(CC(C)C)S(=O)(=O)c3ccc4nc(NC(C)C)sc4c3)[C@@H]21", "strain": "NL4-3", "changes": "L10F V32I L33F M46L I54M A71V", "read by": "p24 / luminescence", "value": "2"}
{"structure": "CCOCn1c(Cc2ccccc2)c(C(C)C)c(=O)[nH]c1=O", "strain": "Recombinant", "changes": "RT-V106A", "read by": "cytopathic effect", "value": "25"}

The first 4 rows once more:

structure	strain	changes	read by	value
CCN1C(=O)N(Cc2ccccc2)S(=O)(=O)c2cscc21	ADP/141	RT-D67N K70R T215F K219Q	syncytia	0.356
CC(C)=CCN1c2cc(Cl)cc3[nH]c(=S)n(c23)C[C@@H]1C		RT-L74V K101E		4
COc1cc(C(=O)N[C@H](C(=O)NCCCC[C@@H](CO)N(CC(C)C)S(=O)(=O)c2ccc(N)cc2)C(c2ccccc2)c2ccccc2)ccc1O	4596 PR-M46I V82T I84V L10R L63P	PR-M46I V82T I84V L10R L63P	cytopathic effect / MTT	1.64
Cc1ccccc1NC(=O)COc1ccc(Cl)cc1C(=O)c1cc(F)cc(F)c1	Nevirapine-resistant	RT-Y181C	cytopathic effect / MTS	1.44

Fold resistance: result on the changed form divided by that on wild type. An empty or dashed field is not shown.